A mixed list of measured activities; the numbers were collected in NIAID ChemDB.

Shared fields: host cell toxicity; cell line: MT-4; read-out: CC50

CCn is the concentration with n% toxicity to the cells. Conditions beyond the fields shown may differ between rows.

| smiles | value |
|---|---|
| c1cc(CN2CCCNCCNCCCNCC2)ccc1CN1CCCNCCNCCCNCC1 | >300 µM |
| C1CCNCCCN(CCCN2CCCNCCCNCCC2)CCCNCCCCNCCCN(CCCN2CCCNCCCNCCC2)CCCNC1 | 302 µM |
| Cc1cn([C@H]2C[C@H](N=[N+]=[N-])[C@@H](CO)O2)c(=O)[nH]c1=O | >500 µM |
| Cc1cn([C@H]2C[C@H](N=[N+]=[N-])[C@@H](CO)O2)c(=O)[nH]c1=O | 20 µM |
| C[C@H](CC[C@H](O)C(C)(O)CO)[C@H]1CC[C@@]2(C)C3=CC[C@H]4C(C)(C)C(=O)CC[C@]4(C)C3=CC[C@]12C | 15.6 µM |
| C[C@H](CCC(=O)O)[C@H]1CC[C@H]2[C@@H]3CC[C@@H]4C[C@H](O)CC[C@]4(C)[C@H]3C[C@H](O)[C@]12C | 56 µg/mL |
| C1CCNCCCNCCCNCCCN(CCCN2CCCNCCCNCCC2)CCCNCCCNCCCNC1 | 127 µM |
| C=C(C)[C@]12C[C@@H](C)C34OC(/C=C/C=C/CCCCCCCCCC)(OC1C3[C@@H]1O[C@]1(CO)[C@@H](O)[C@]1(O)C(=O)C(C)=CC41)O2 | 16.7 µM |
| CCOCn1c(Cc2ccccc2)c(C(C)C)c(=O)[nH]c1=O | >100 µM |
| C1CCNCCCNCCCN(CCCN2CCCNCCCCNCCCN(CCCN3CCCNCCCNCCCCNCCCNCCC3)CCCNCCCCNCCC2)CCCNCCCNC1 | 47.2 µM |
| CCC(Cc1ccccc1)c1cc(O)c(C(c2cccc(NC(=O)[C@@H](C)NC(=O)OC(C)(C)C)c2)C2CC2)c(=O)o1 | >30 µM |
| C1CNCCCN(CCCN2CCCNCCCNCCC2)CCCNC1 | 518 µM |
| C[C@H](CC(=O)C[C@@H](C)[C@H]1CC(=O)[C@@]2(C)C3=C(C(=O)C[C@]12C)[C@@]1(C)CC[C@H](O)C(C)(C)[C@@H]1C[C@@H]3O)C(=O)O | >1000 µM |
| O=c1[nH]cnc2c1ncn2[C@H]1CC[C@@H](CO)O1 | >2.24 µM |
| C[C@H](CCC(=O)O)[C@H]1CC[C@H]2[C@@H]3[C@H](O)C[C@@H]4C[C@H](OS(=O)(=O)O)CC[C@]4(C)[C@H]3C[C@H](O)[C@]12C | >500 µg/mL |
| O=c1ccn([C@H]2CC[C@@H](CO)O2)c(=O)[nH]1 | >625 µM |
| CC[C@H](C)[C@@H](C(=O)O)n1sc2ccccc2c1=O | >100 µM |
| Nc1nc(Cl)nc2c1ncn2[C@@H]1C[C@@H](O)[C@H](CO)O1 | >10 µM |
| Nc1ccn([C@H]2C=C[C@@H](CO)O2)c(=O)n1 | 7.9 µM |
| Cc1cn([C@H]2C[C@H](N=[N+]=[N-])[C@@H](CO)O2)c(=O)[nH]c1=O | 8 µM |
| Cc1ccc(C(=O)Nc2ccc(S(=O)(=O)O)c3cc(S(=O)(=O)O)cc(S(=O)(=O)O)c23)cc1NC(=O)c1cccc(NC(=O)Nc2cccc(C(=O)Nc3cc(C(=O)Nc4ccc(S(=O)(=O)O)c5cc(S(=O)(=O)O)cc(S(=O)(=O)O)c45)ccc3C)c2)c1 | 625 µM |
| C1CCNCCCNCCCNCCCCNCCCNCCCNCCCCNCCCNCCCNCCCNCCCCNCCCNC1 | 74.9 µM |
| CC(C)=CCC/C(C)=C/CC/C(C)=C/Cc1c(O)cc(C)cc1O | 38 µM |
| Cc1ccc(C(=O)Nc2ccc(S(=O)(=O)O)c3cc(S(=O)(=O)O)cc(S(=O)(=O)O)c23)cc1NC(=O)c1cccc(NC(=O)Nc2cccc(C(=O)Nc3cc(C(=O)Nc4ccc(S(=O)(=O)O)c5cc(S(=O)(=O)O)cc(S(=O)(=O)O)c45)ccc3C)c2)c1 | >500 µM |
| C[C@H](CCC(=O)O)[C@H]1CC[C@H]2[C@@H]3CC[C@@H]4C[C@H](OS(=O)(=O)O)CC[C@]4(C)[C@H]3C[C@H](OS(=O)(=O)O)[C@]12C | >311 µg/mL |
| CC(C)=CCc1cc(C2CC(=O)c3ccc(O)c(CC=C(C)C)c3O2)ccc1O | >100 µg/mL |
| C[C@H](CCC(=O)NCCS(=O)(=O)O)[C@H]1CC[C@H]2[C@@H]3CC[C@@H]4C[C@H](OS(=O)(=O)O)CC[C@]4(C)C3CC[C@]12C | >500 µg/mL |
| [N-]=[N+]=N[C@@H]1C[C@@H](n2cnc3c(N)nc(Cl)nc32)O[C@H]1CO | >10 µM |
| Cc1cn([C@H]2C=C[C@@H](CO)O2)c(=O)[nH]c1=O | 1.2 µM |
| Nc1ncnc2c1ncn2CCOCP(=O)(O)O | 67 µM |
| C1CNCCCN(CCCN2CCCNCCCN(CCCN3CCCNCCCNCCC3)CCCNCCC2)CCCNC1 | 75.5 µM |
| CCc1cn([C@H]2C[C@H](F)[C@@H](CO)O2)c(=O)[nH]c1=O | >625 µM |
| Nc1ccn([C@H]2CC[C@@H](CO)O2)c(=O)n1 | 3.5 µM |
| CC(C)=CCc1c(O)ccc2c1OC(c1ccccc1)CC2=O | >63 µg/mL |
| Cc1ccnc2c1NC(=O)c1cccnc1N2C1CC1 | >100 µM |
| CC(C)C(C)/C=C/[C@@H](C)[C@H]1CCC2C3=C[C@@H](O)[C@@]4(O)C[C@@H](O)CC[C@]4(C)C3CC[C@@]21C | 15.6 µM |
| COc1cc(C)c(C(=O)O)c(O)c1C/C=C(\C)CC/C=C(\C)CCC=C(C)C | 53 µM |
| C1CCNCCCN(CCCN2CCCNCCCCNCCCNCCCNCCCNCCCCNCCC2)CCCNCCCCNCCCNCCCNCCCNC1 | 228 µM |
| CC(C)=CCOc1ccc([C@@H]2COc3c(ccc4c3C=CC(C)(C)O4)C2)c(O)c1 | 79 µg/mL |
| Cc1cn([C@H]2C=C[C@@H](CO)O2)c(=O)[nH]c1=O | 4 µM |
| COc1ccc(-c2coc3cc(O)cc(O)c3c2=O)cc1 | 60 µg/mL |
| C[C@H](CCC(=O)O)[C@H]1CC[C@H]2[C@@H]3[C@H](O)C[C@@H]4C[C@H](O)CC[C@]4(C)[C@H]3C[C@H](O)[C@]12C | 240 µg/mL |
| C1CNCCNCCCN(CCCN2CCCNCCNCCCNCC2)CCNC1 | >300 µM |
| C[C@H](CC(=O)C[C@@H](C)[C@H]1CC(=O)[C@@]2(C)C3=C(C(=O)C[C@]12C)[C@@]1(C)CCC(=O)C(C)(C)[C@@H]1C[C@@H]3O)C(=O)O | >1000 µM |
| C[C@H](CCC(=O)O)[C@H]1CC[C@H]2C3[C@H](O)C[C@@H]4C[C@H](OS(=O)(=O)O)CC[C@]4(C)[C@H]3CC[C@]12C | 335 µg/mL |
| CO[C@H]1O[C@@H](n2ccc(=O)[nH]c2=O)C[C@@H]1N=[N+]=[N-] | 244 µM |
| CC1(C)C2=CC(=O)C(c3ccccc3)([N+](=O)[O-])C(=O)N2c2ccc(Cl)cc21 | 29 µM |
| Nc1ccn([C@H]2C[C@H](F)[C@@H](CO)O2)c(=O)n1 | 26 µM |
| CC(=O)O[C@H]1C[C@@]2(C)[C@@H](C[C@@H](O)[C@H]3[C@@]4(C)CC[C@@H](O)[C@@H](C)[C@@H]4CC[C@@]32C)/C1=C(\CCC=C(C)C)C(=O)O | >46 µM |
| CCc1cn([C@H]2CC[C@@H](CO)O2)c(=O)[nH]c1=O | >625 µM |
| C=C(C)COCn1c(Cc2cc(C)cc(C)c2)c(CC)c(=O)[nH]c1=O | >100 µM |

For reference, 7 entries again:

smiles,value
CC(C)=CCc1cc(C2CC(=O)c3ccc(O)c(CC=C(C)C)c3O2)ccc1O,>100 µg/mL
CC(C)=CCc1c(O)ccc2c1OC(c1ccccc1)CC2=O,>63 µg/mL
C1CCNCCCNCCCNCCCN(CCCN2CCCNCCCNCCC2)CCCNCCCNCCCNC1,127 µM
Nc1ccn([C@H]2C[C@H](F)[C@@H](CO)O2)c(=O)n1,26 µM
C[C@H](CCC(=O)NCCS(=O)(=O)O)[C@H]1CC[C@H]2[C@@H]3CC[C@@H]4C[C@H](OS(=O)(=O)O)CC[C@]4(C)C3CC[C@]12C,>500 µg/mL
Cc1cn([C@H]2C[C@H](N=[N+]=[N-])[C@@H](CO)O2)c(=O)[nH]c1=O,8 µM
O=c1ccn([C@H]2CC[C@@H](CO)O2)c(=O)[nH]1,>625 µM